In publication PMC3849439, “Peptides Corresponding to the Predicted Heptad Repeat 2 Domain of the Feline Coronavirus Spike Protein Are Potent Inhibitors of Viral Infection” (PLoS ONE, 2013):
Which two values form the index is not stated here.

These compounds were tested on Feline coronavirus type II NTU156 strain. Conditions: relates CC50 (fcwf-4, MTT) to IC50 (plaque reduction).

Structure (SMILES)	Selectivity index (SI)
CC[C@H](C)[C@H](NC(=O)[C@H](CC(N)=O)NC(=O)[C@H](CC(=O)O)NC(=O)[C@@H](NC(=O)[C@H](CC(C)C)NC(=O)[C@@H](NC(=O)[C@H](C)NC(=O)[C@H](CC(C)C)NC(=O)[C@H](CCC(=O)O)NC(=O)[C@@H](NC(=O)[C@@H](NC(=O)[C@@H](NC(=O)[C@H](CC(N)=O)NC(=O)[C@H](Cc1c[nH]cn1)NC(=O)[C@H](CC(C)C)NC(=O)[C@H](CCCCN)NC(=O)[C@H](CCC(=O)O)NC(=O)[C@H](CO)NC(=O)[C@H](CCCNC(=N)N)NC(=O)[C@H](Cc1ccccc1)NC(=O)[C@H](CCC(=O)O)NC(=O)[C@H](CC(C)C)NC(=O)[C@H](CC(=O)O)NC(=O)[C@H](CC(=O)O)NC(=O)[C@@H](NC(=O)[C@H](CCC(=O)O)NC(=O)CNC(=O)[C@@H](NC(=O)[C@H](CC(C)C)NC(=O)[C@H](CC(N)=O)NC(=O)[C@H](CC(C)C)NC(=O)[C@H](Cc1ccc(O)cc1)NC(=O)[C@@H](NC(=O)[C@H](C)NC(=O)[C@H](CC(N)=O)NC(=O)[C@@H](N)Cc1ccccc1)[C@@H](C)O)[C@@H](C)O)[C@@H](C)CC)[C@@H](C)O)[C@@H](C)O)C(C)C)[C@@H](C)CC)[C@@H](C)CC)C(=O)O [FP3]	≧14.07
CC[C@H](C)[C@H](NC(=O)[C@H](C)NC(=O)[C@H](CC(C)C)NC(=O)[C@H](CCC(=O)O)NC(=O)[C@@H](NC(=O)[C@@H](NC(=O)[C@@H](NC(=O)[C@H](CC(N)=O)NC(=O)[C@H](Cc1c[nH]cn1)NC(=O)[C@H](CC(C)C)NC(=O)[C@H](CCCCN)NC(=O)[C@H](CCC(=O)O)NC(=O)[C@H](CO)NC(=O)[C@H](CCCNC(=N)N)NC(=O)[C@H](Cc1ccccc1)NC(=O)[C@H](CCC(=O)O)NC(=O)[C@H](CC(C)C)NC(=O)[C@H](CC(=O)O)NC(=O)[C@H](CC(=O)O)NC(=O)[C@@H](NC(=O)[C@H](CCC(=O)O)NC(=O)CNC(=O)[C@@H](NC(=O)[C@H](CC(C)C)NC(=O)[C@H](CC(N)=O)NC(=O)[C@H](CC(C)C)NC(=O)[C@H](Cc1ccc(O)cc1)NC(=O)[C@@H](NC(=O)[C@H](C)NC(=O)[C@H](CC(N)=O)NC(=O)[C@@H](N)Cc1ccccc1)[C@@H](C)O)[C@@H](C)O)[C@@H](C)CC)[C@@H](C)O)[C@@H](C)O)C(C)C)C(=O)N[C@@H](CC(C)C)C(=O)N[C@H](C(=O)N[C@@H](CC(=O)O)C(=O)N[C@@H](CC(N)=O)C(=O)N[C@H](C(=O)N[C@@H](CC(N)=O)C(=O)N[C@@H](CC(N)=O)C(=O)N[C@H](C(=O)N[C@@H](CC(C)C)C(=O)N[C@H](C(=O)N[C@@H](CC(N)=O)C(=O)N[C@@H](CC(C)C)C(=O)N[C@@H](CCC(=O)O)C(=O)N[C@@H](Cc1c[nH]c2ccccc12)C(=O)N[C@@H](CC(C)C)C(=O)N[C@@H](CC(N)=O)C(=O)N[C@@H](CCCNC(=N)N)C(=O)N[C@H](C(=O)N[C@@H](CCC(=O)O)C(=O)O)[C@@H](C)CC)C(C)C)[C@@H](C)O)[C@@H](C)CC)[C@@H](C)CC [FP5]	≧150.37
CC[C@H](C)[C@H](NC(=O)[C@H](C)NC(=O)[C@H](CC(C)C)NC(=O)[C@H](CCC(=O)O)NC(=O)[C@@H](NC(=O)[C@@H](NC(=O)[C@@H](NC(=O)[C@H](CC(N)=O)NC(=O)[C@H](Cc1c[nH]cn1)NC(=O)[C@H](CC(C)C)NC(=O)[C@H](CCCCN)NC(=O)[C@H](CCC(=O)O)NC(=O)[C@H](CO)NC(=O)[C@H](CCCNC(=N)N)NC(=O)[C@H](Cc1ccccc1)NC(=O)[C@H](CCC(=O)O)NC(=O)[C@H](CC(C)C)NC(=O)[C@H](CC(=O)O)NC(=O)[C@H](CC(=O)O)NC(=O)[C@@H](NC(=O)[C@H](CCC(=O)O)NC(=O)CNC(=O)[C@@H](NC(=O)[C@H](CC(C)C)NC(=O)[C@H](CC(N)=O)NC(=O)[C@H](CC(C)C)NC(=O)[C@H](Cc1ccc(O)cc1)NC(=O)[C@@H](NC(=O)[C@H](C)NC(=O)[C@H](CC(N)=O)NC(=O)[C@@H](N)Cc1ccccc1)[C@@H](C)O)[C@@H](C)O)[C@@H](C)CC)[C@@H](C)O)[C@@H](C)O)C(C)C)C(=O)N[C@@H](CC(C)C)C(=O)N[C@H](C(=O)N[C@@H](CC(=O)O)C(=O)N[C@@H](CC(N)=O)C(=O)N[C@H](C(=O)N[C@@H](CC(N)=O)C(=O)N[C@@H](CC(N)=O)C(=O)N[C@H](C(=O)N[C@@H](CC(C)C)C(=O)N[C@H](C(=O)N[C@@H](CC(N)=O)C(=O)N[C@@H](CC(C)C)C(=O)O)C(C)C)[C@@H](C)O)[C@@H](C)CC)[C@@H](C)CC [FP4]	≧111.11
